Reference: publication PMC9387928
For at least one entry, the source does not settle the construct or the ends of the probe. Weaker means in comparison with the reference protein, sequence or condition of that experiment. Where a protein sequence is shown, tags need not be part of it.

Biological target: T1, ZccR (MerR-type regulator) (Streptococcus mutans UA159) (UniProt Q8DRZ5)
T1 sequence (looked up): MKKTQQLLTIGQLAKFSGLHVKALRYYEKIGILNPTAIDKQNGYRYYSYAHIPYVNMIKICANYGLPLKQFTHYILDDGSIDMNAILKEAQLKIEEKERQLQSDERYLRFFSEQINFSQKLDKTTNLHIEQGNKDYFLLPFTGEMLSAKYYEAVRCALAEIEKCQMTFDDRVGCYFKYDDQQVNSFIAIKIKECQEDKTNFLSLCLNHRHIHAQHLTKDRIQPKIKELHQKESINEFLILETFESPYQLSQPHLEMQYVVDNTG
Test: EMSA
Settings: 3 mM TPEN (Zn chelator), complex formation inhibited; 10 mM Tris, 50 mM KCl, 1 ug poly dI-dC, 1 mM DTT, 5% glycerol, pH 7.5; 20 fmol probe in 20 ul; 6% native PAGE at 4 C; binding temperature not stated; recombinant protein; residues 1-264; protein details: His-tag (pET30c); probe letters rebuilt from the primers and the genome

“CACAAATAGCTTGACCTTCCCTTTAAGGTATAGTTTATAGTTAAACTATAACAAGGTTTGCTAAAAAATGCAATGATTTCTGTATTGGAAAGGAGCCAATCATGTCTAAAGGTGATAAACAAAAGAAAAGGCTTCAAAAAATGACTTGGCTTTCAATATG (double strand) [zccE-zccR intergenic region (IGR), 160 bp]”: binds more weakly.
